Pooled drug test results. Numbers come from NIAID ChemDB, via PubChem.

Common to all: whole-cell or culture tests; species: Herpes simplex virus 2; read-out: MIC

Conditions beyond the fields shown may differ between rows. Blank or dashed fields: not listed here.

O=c1[nH]c(=O)n([C@@H]2O[C@H](CO)[C@@H](O)[C@@H]2O)cc1/C=C/Br ; value: 100 µg/mL
CCc1cn([C@H]2C[C@H](O)[C@@H](CO)O2)c(=O)[nH]c1=O ; strain: MS ; value: 10 µg/mL
O=c1[nH]c(=O)n([C@H]2C[C@H](O)[C@@H](CO)O2)cc1/C=C/Br ; value: 100 µg/mL
Nc1nccc2c1ncn2[C@@H]1C[C@H](CO)[C@@H](O)[C@H]1O ; strain: G ; value: >400 µg/mL
COc1ccc(-n2c(Cc3nc4n(n3)CCCC4)n[nH]c2=S)cc1 ; strain: G ; value: 80 µg/mL
O=c1ccn([C@@H]2O[C@H](CO)[C@@H](O)[C@H]2O)c(=O)[nH]1 ; strain: MS ; value: 100 µg/mL
Nc1nccc2c1ncn2[C@@H]1C=C(CO)[C@@H](O)[C@H]1O ; strain: G ; value: >400 µg/mL
CCn1nc(CC(=O)NN=C(C)C)nc1C ; strain: G ; value: >400 µg/mL
CCc1cn([C@@H]2O[C@H](CO)[C@@H](O)[C@@H]2O)c(=O)[nH]c1=O ; strain: MS ; value: 100 µg/mL
Nc1ccn(C[C@@H](CO)OCP(=O)(O)O)c(=O)n1 ; value: 10 µg/mL
Cc1cn([C@@H]2O[C@H](CO)[C@@H](O)[C@@H]2O)c(=O)[nH]c1=O ; strain: MS ; value: 1 µg/mL
CCn1nc(CC(=O)N/N=C/c2ccco2)nc1C ; strain: G ; value: >400 µg/mL
CCSc1ncnc2c1ncn2[C@@H]1OC2COP(=O)(O)OC2[C@H]1O ; strain: MS ; value: 100 µg/mL
Nc1nc2c(ccn2[C@@H]2C[C@H](CO)[C@H](O)[C@@H]2O)c(=O)[nH]1 ; value: 25 µg/mL
CSc1ncnc2c1ncn2[C@@H]1OC2COP(=O)(O)OC2[C@H]1O ; strain: MS ; value: 3.2 µg/mL
Cc1nc(Cc2n[nH]c(=S)n2-c2ccccc2)nn1C ; strain: G ; value: 400 µg/mL
O=c1[nH]c(=O)n([C@H]2C[C@H](O)[C@@H](CO)O2)cc1I ; strain: BROD ; value: 11 µg/mL
CCn1nc(-c2ccc(Cn3ccc4ccccc43)cc2)nc1C ; strain: G ; value: 80 µg/mL
Cc1cn([C@@H]2O[C@H](CO)[C@@H](O)[C@@H]2O)c(=O)[nH]c1=O ; value: 1 µg/mL
Nc1ncnc2c1ncn2[C@@H]1C=C[C@@H](O)[C@H]1O ; strain: G ; value: 300 µg/mL

2 of the rows above, restated:

structure	strain	value
CCn1nc(-c2ccc(Cn3ccc4ccccc43)cc2)nc1C	G	80 µg/mL
O=c1[nH]c(=O)n([C@@H]2O[C@H](CO)[C@@H](O)[C@@H]2O)cc1/C=C/Br		100 µg/mL